According to PMC13291817, “Engineering an Exo70 integrated domain of a barley NLR for improved blast resistance” (2026):

Legend:
[1] = biological target: RGH2^+-Exo70 domain (residues 1033-1637), purified from E. coli (barley (Hordeum vulgare)); experiment: ITC
[2] = biological target: RGH2-Exo70 domain (residues 1033-1637), purified from E. coli (barley (Hordeum vulgare)); experiment: ITC

Work on “AVR-Pii^Wb, purified from E. coli (natural protein)” yielded a Kd [1] of 1.06 µM and a Kd [2] of 6.7 µM.
